The list shows a part of the results, in another mix than the full data. Calls of active or inactive are those of the source. No rule for the calls is given here. Bounds are passed on as bounds.

The assay in a line: NMR binding screen, influenza A RNA promoter, Kd (AID 1637). The conditions noted are these: NMR binding to influenza A RNA promoter.
The Kd is a measure of binding affinity in units of concentration. Take `OC1CN2CCC1CC2` (configuration not stated): the Kd was inactive: > 4 mM.
With `CP(N)(=O)Oc1ccc(Cl)cc1` (configuration not stated), the Kd is inactive: > 4 mM.

Values taken from PubChem BioAssay AID1637 (Sanford-Burnham Center for Chemical Genomics, 2009).
